Laboratory results as given in PMC4667793 (Journal of medicinal chemistry, 2015).

Chains of the proteins cited; added tags and fusions are not shown. Lines headed by an entry give the natural chain unless they say otherwise; changes in a name come on top.
UniProt I6YFP0: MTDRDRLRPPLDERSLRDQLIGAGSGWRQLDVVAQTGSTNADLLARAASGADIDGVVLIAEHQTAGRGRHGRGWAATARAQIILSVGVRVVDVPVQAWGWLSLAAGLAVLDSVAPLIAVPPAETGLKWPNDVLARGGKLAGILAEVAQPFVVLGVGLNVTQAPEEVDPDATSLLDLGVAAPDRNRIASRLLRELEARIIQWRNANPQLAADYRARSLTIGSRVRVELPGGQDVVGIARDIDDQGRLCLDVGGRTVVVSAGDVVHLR

Columns and labels:
[1] = target: T1, MtBPL (Mycobacterium tuberculosis, UniProt I6YFP0); details: from K of displacement ITC, 298 K
[2] = target: T1, MtBPL

## CCN(CC)CC.Nc1ncnc2c1ncn2COCCNS(=O)(=O)NC(=O)CCCC[C@@H]1SC[C@@H]2NC(=O)N[C@@H]21 [Compound 90]
[1]
  ΔG: -13.0 ± 0.1 kcal/mol
[2]; calculated from ΔG (displacement) and ΔH (direct titration)
  -TΔS: 12.6 ± 0.7 kcal/mol
[2]; direct titration ITC, 25 °C
  ΔH: -25.5 ± 0.7 kcal/mol
